43 compounds from PubChem BioAssay AID624483 (NMMLSC, 2012) can be followed below.

Each structure is given as a SMILES string. The entries are a selection whose mix differs from that of the whole data set. Calls of active or inactive are those of the source. Rule as the data show it: active = fluorescence intensity above about 16000; inconclusive = no clear call, values can overlap the other calls; inactive = below that.

The assay can be described thus: counter-screen for toxin protease inhibitors: compound fluorescence, primary screen, artefact control for toxin protease inhibitor project, biochemical, multiplex microsphere, HTS (AID 624483). Also: test concentration not given here. As to conditions: compound autofluorescence counterscreen, microsphere flow cytometry; stronger effect = higher value. For orientation: A counterscreen serves to expose hits that act by an unwanted route or on another target.
`CC(C)(C)n1nnnc1C(c1cccc2ccccc12)N1CCC(n2c(=O)[nH]c3ccccc32)CC1` (stereo not drawn): the fluorescence intensity was inactive: 5950.

Consider `c1ccc(CN2CCC(Nc3ccccc3)CC2)cc1`, for which the fluorescence intensity was inactive: 5240. Turning to `Cc1cc(N(CCCl)CCCl)ccc1C=O`, the fluorescence intensity is inactive: 3290. To `CCCN1CCC(Nc2cc(OC)cc(OC)c2)CC1` belongs inactive: 2950; to `O=c1[nH]c2ccccc2n1C1CCN(C(c2ccccc2)c2nnnn2C2CCCC2)CC1` (stereo not drawn), inactive: 4310; to `CN(C)C1(CNC(=O)c2cccc(C#N)c2)CCCCC1`, inactive: 2980. Consider `COc1ccc(C(=O)NCC2(N3CCOCC3)CCCCC2)cc1OC`, for which the fluorescence intensity was inactive: 3330. Take `O=c1[nH]c2ccccc2n1C1CCN(C(c2ccnc3ccccc23)c2nnnn2C2CCCC2)CC1` (stereo not drawn): the fluorescence intensity was inactive: 5740.

Consider `O=c1[nH]c2ccccc2n1C1CCN(C(c2cccs2)c2nnnn2C2CCCCC2)CC1` (stereo not drawn), for which the fluorescence intensity is inactive: 5820. Turning to `O=C(NCC1(N2CCOCC2)CCCCC1)c1cc(Br)ccc1Cl`, the fluorescence intensity was inactive: 6830. As to `CCCCn1nnnc1C(c1ccccc1)N1CCC(n2c(=O)[nH]c3ccccc32)CC1` (stereo not drawn), the fluorescence intensity was inactive: 5430. As for `COc1cc(C(=O)NCC2(N3CCOCC3)CCCCC2)cc(OC)c1C`, the fluorescence intensity is inactive: 3830. On to `CCCCn1nnnc1C(c1cccc(OC)c1OC)N1CCC(n2c(=O)[nH]c3ccccc32)CC1` (stereo not drawn), for which the fluorescence intensity was inactive: 5500. For `O=C(OC1CN2CCC1CC2)C1c2ccccc2C=Cc2ccccc21` (stereo not drawn), the fluorescence intensity is inactive: 2330. For the compound `O=c1[nH]c2ccccc2n1C1CCN(C(c2cccs2)c2nnnn2C2CCCC2)CC1` (stereo not drawn), the fluorescence intensity is inactive: 5480.

For `N/C(=N\O)c1c(N)no[n+]1[O-]`, the fluorescence intensity was inactive: 2560.

For the compound `COc1cccc(C(c2nnnn2C(C)(C)C)N2CCC(n3c(=O)[nH]c4ccccc43)CC2)c1OC` (stereo not drawn), the fluorescence intensity is inactive: 4340.

On to `O=c1[nH]c2ccccc2n1C1CCN(C(c2cc3ccccc3o2)c2nnnn2C2CCCC2)CC1` (stereo not drawn), for which the fluorescence intensity was inactive: 5720. For `CCCOc1ccc(C(=O)NCC2(N(C)C)CCCCC2)cc1`, the fluorescence intensity is inactive: 3800. To `CC(C)(C)OC(=O)N1CCC(Nc2ccccc2)CC1` belongs inactive: 3150; to `NN(c1ccccc1)C1CCN(CCc2ccccc2)CC1`, inactive: 5250; to `O=C(O)C1(Nc2ccccc2)CCN(Cc2ccccc2)CC1`, inactive: 4270.

Regarding `CCOc1ncccc1C(=O)NCC1(N2CCOCC2)CCCCC1`, the fluorescence intensity was active: 21100. With `CN1CCC(Nc2ccc(F)c(Cl)c2)CC1`, the fluorescence intensity was inactive: 3690. For the compound `CN1CCC(Nc2ccc(Cl)cc2)CC1`, the fluorescence intensity is inactive: 4740. For the compound `CCC(CO)(C(=O)OC1CN2CCC1CC2)c1ccccc1` (stereo not drawn), the fluorescence intensity was inactive: 2480.

For `COc1cccc(C(=O)N(c2cc(C)cc(C)c2)C2CCN(C(=O)OC(C)(C)C)CC2)c1`, the fluorescence intensity is inactive: 3610.

For `COc1cc(OC)cc(C(=O)NCC2(N3CCOCC3)CCCCC2)c1`, the fluorescence intensity was inactive: 4410.

Turning to `COc1cccc(C(c2nnnn2C2CCCC2)N2CCC(n3c(=O)[nH]c4ccccc43)CC2)c1OC` (stereo not drawn), the fluorescence intensity is inactive: 6330. Regarding `Cc1ccc(NC2(C#N)CCN(Cc3ccccc3)CC2)cc1`, the fluorescence intensity is inactive: 4370. As to `Fc1ccccc1NC1CCN(Cc2ccccc2)CC1`, the fluorescence intensity was inactive: 9740. For the compound `COc1cc(OC)cc(C(=O)NCC2(N3CCCCC3)CCCCC2)c1`, the fluorescence intensity is inactive: 4060. In the case of `O=c1[nH]c2ccccc2n1C1CCN(C(c2ccnc3ccccc23)c2nnnn2C2CCCCC2)CC1` (stereo not drawn), the fluorescence intensity was inactive: 5730.

Regarding `COc1cccc(C(c2nnnn2C2CCCCC2)N2CCC(n3c(=O)[nH]c4ccccc43)CC2)c1OC` (stereo not drawn), the fluorescence intensity is inactive: 5350.

Regarding `CC(=O)N(c1ccccc1)C1CCNCC1`, the fluorescence intensity was inactive: 2820. As to `CCC(c1nnnn1C1CCCCC1)N1CCC(n2c(=O)[nH]c3ccccc32)CC1` (stereo not drawn), the fluorescence intensity was inactive: 3890. Take `O=C(NCC1(N2CCCCC2)CCCCC1)c1ccco1`: the fluorescence intensity is inactive: 4550. As for `CN(C)c1ccc(C(=O)NCC2(N3CCCCC3)CCCCC2)cc1`, the fluorescence intensity was inactive: 3620.

As for `Cn1c(=O)[nH]cc(N(CCCl)CCCl)c1=O`, the fluorescence intensity is inactive: 3380.

For `Cc1ccccc1NC1(C#N)CCN(Cc2ccccc2)CC1`, the fluorescence intensity is inactive: 3960. Consider `CCN1CCC(Nc2cccc(F)c2)CC1`, for which the fluorescence intensity is inactive: 2450. In the case of `COc1ccc(C(c2nnnn2C2CCCCC2)N2CCC(n3c(=O)[nH]c4ccccc43)CC2)cc1` (stereo not drawn), the fluorescence intensity is inactive: 5600.

Regarding `CC(C)(C)n1nnnc1C(c1ccnc2ccccc12)N1CCC(n2c(=O)[nH]c3ccccc32)CC1` (stereo not drawn), the fluorescence intensity was inactive: 4250.
